According to patent US20250059581A1, “METHOD OF BACTERIAL IDENTIFICATION AND TESTING OF BACTERIUM RESISTANT TO ONE OR MORE ANTIBIOTICS” (Nanyang Technological University, priority 2021, published 2025):

Test system: S. aureus
Experiment: Bacterial growth inhibition by D-Ala-N3
Details: D-Ala-N3 1.5 mM

With `Cl.[N-]=[N+]=NC[C@@H](N)C(=O)O` the “potential bacterial growth inhibition” value was “would not have significant inhibition on bacterial growth”.
